Results of unrelated studies side by side (data: NIAID ChemDB).

Common to all: tests in culture; organism: Cryptococcus neoformans

ECn is the concentration giving n% inhibition of infection, replication or growth.

smiles | read by | read-out | strain or isolate | value
COc1cc(/C=C2\SC(N(C)C)=NC2=O)cc(OC)c1OC | broth dilution | MIC100 | ATCC 32264 | >250 µg/mL
CCCCCCCCCCN[C@@H]1CCc2cc(OC)c(OC)cc2C1 |  | MIC80 |  | 1 µg/mL
COc1cc(NC(C)CCCN)c2ncccc2c1 |  | MIC50 |  | 0.002–2 µg/mL
CCCCCCCCN[C@@H]1CCc2cc(OC)c(OC)cc2C1 |  | MIC80 |  | 16 µg/mL
CCN(CC)CCCC(C)Nc1ccnc2cc(Cl)ccc12 |  | MIC50 |  | 0.031–32 µg/mL
C=C1CC[C@@]2(OC1)O[C@H]1C[C@H]3[C@@H]4CC=C5C[C@@H](O)[C@H](O)[C@@H](O[C@@H]6O[C@H](CO)[C@H](O)[C@H](O)[C@H]6O)[C@]5(C)[C@H]4CC[C@]3(C)[C@H]1[C@@H]2C |  | MFC |  | ≥20 µg/mL
Cc1cc(NS(=O)(=O)c2ccc(N)cc2)no1 |  | MIC50 |  | 80 µg/mL
CCCCCCCCCCCCN[C@@H]1CCc2cc(OC)c(OC)cc2C1 |  | MIC80 |  | 1 µg/mL
CC[C@@H]([C@H](C)O)n1ncn(-c2ccc(N3CCN(c4ccc(OC[C@@H]5CO[C@@](Cn6cncn6)(c6ccc(F)cc6F)C5)cc4)CC3)cc2)c1=O |  | MIC90 |  | 0.016–0.125 µg/mL
COC(=O)c1cc(O)c(O)c(O)c1 | broth dilution | MIC | ATCC 208821 | 100 µg/mL
C=C(CCC1(OC)O[C@H]2C[C@H]3[C@@H]4CC=C5C[C@@H](O)[C@H](O)[C@@H](O[C@@H]6OC[C@@H](O)[C@H](O)[C@H]6O)[C@]5(C)[C@H]4CC[C@]3(C)[C@H]2[C@@H]1C)CO[C@@H]1O[C@H](CO)[C@@H](O)[C@H](O)[C@H]1O |  | MFC |  | ≥20 µg/mL
COC(=O)Nc1nc2ccccc2[nH]1 |  | EC50 | IU4 | <3.6 µg/mL
C=C(Cl)/C=C/[C@H](O)CC(=C)C[C@H]1OC2[C@@H](O)[C@]3(O)C[C@@H](O)[C@H](C)[C@H](CCC/C=C\[C@@H]4C[C@@H](O)C[C@]5(C[C@H](OC)CC(CC(=O)[C@@H](C)[C@H](OC(C)=O)[C@@H](C)C(=C)C[C@@H]6C[C@@](C)(O)C[C@]7(C[C@H](OC(C)=O)CC(CC(=O)O[C@@H]([C@@H]1O)[C@H]2C)O7)O6)O5)O4)O3 |  | MFC | ATCC90112 | 3.12 µg/mL
C[C@@H]1CC[C@@]2(OC1)O[C@H]1C[C@H]3[C@@H]4CC=C5C[C@@H](O)[C@H](O)[C@@H](O[C@@H]6OC[C@@H](O)[C@H](O)[C@H]6O[C@@H]6O[C@@H](C)[C@H](O)[C@@H](O)[C@H]6O)[C@]5(C)[C@H]4CC[C@]3(C)[C@H]1[C@@H]2C |  | MFC |  | ≥20 µg/mL
c1ccc2[nH]c(-c3cscn3)nc2c1 |  | EC50 | IU4 | <4 µg/mL
c1ccc2[nH]c(-c3cscn3)nc2c1 |  | MIC50 |  | 0.12–128 µg/mL
CCCCCCCCCN[C@@H]1CCc2cc(OC)c(OC)cc2C1 |  | MIC80 |  | 4 µg/mL
CC1=C2[C@H]3OC(=O)[C@@H](C)[C@@H]3[C@@H](O)C[C@@]2(C)C=CC1=O |  | MIC50 |  | 0.21–16 µg/mL
CCCCCCCCCCCCN[C@H]1CCc2cc(OC)c(OC)cc2C1 |  | MIC80 |  | 1 µg/mL
c1ccc2c(c1)-c1nccc3ccnc-2c13 |  | EC50 | ATCC52627 | 4.8 µg/mL
CO[C@H]1C[C@H](O[C@H]2CC[C@@]3(C)C(=CC[C@@H]4[C@@H]3CC[C@]35C(=O)O[C@H](C)[C@H]3C(=O)C[C@]45O)C2)O[C@H](C)[C@H]1O[C@H]1C[C@H](OC)[C@H](O[C@@H]2C[C@@H](OC)[C@@H](O[C@@H]3O[C@H](CO)[C@@H](O)[C@H](O)[C@H]3O)[C@H](C)O2)[C@@H](C)O1 | broth dilution / turbidity | MIC | IP 90526 | 25 µg/mL
C[C@@H]1C=C2C3CCC4[C@@]5(C)CC[C@@H](O)C(C)(C)C5CC[C@@]4(C)[C@]3(C)CC[C@@]2(C(=O)O)CC1 | broth dilution | MLC | ATCC 208821 | >200 µg/mL
C[C@@H]1[C@H](O)[C@@H](C)/C=C/C=C/CC/C=C/C=C/C=C/C=C/C(O[C@H]2O[C@H](C)[C@@H](O)[C@H](N)[C@@H]2O)CC2O[C@](O)(CC(O)C(O)CCC(O)CC(O)CC(O)CC(=O)O[C@H]1C)CC(O)C2C(=O)O | broth dilution / turbidity | MIC | IP 90526 | 12.5 µg/mL
CN(C)C1=NC(=O)/C(=C/c2ccc([N+](=O)[O-])cc2)S1 | broth dilution | MIC100 | ATCC 32264 | >250 µg/mL
Nc1ccc(S(=O)(=O)Nc2ncccn2)cc1 |  | MIC50 |  | 320 µg/mL
C[C@@H](c1nc(-c2ccc(C#N)cc2)cs1)[C@](O)(Cn1cncn1)c1cc(F)ccc1F |  | MIC90 |  | 0.016–0.125 µg/mL
CCCCCCCCCCCCCCCCCCCO | broth dilution | MIC | ATCC 208821 | 100 µg/mL
CCCOc1ccc2nc(NC(=O)OC)[nH]c2c1 |  | EC50 | ATCC 14116 | 1.4 µg/mL
COc1cnc2c3c(nccc13)C1SC=CC1C2=O |  | MIC80 |  | >64 µg/mL
Nc1[nH]c(=O)ncc1F |  | MIC90 |  | 2–8 µg/mL
CN(C)C1=NC(=O)/C(=C/c2ccccc2)S1 | broth dilution | MIC100 | ATCC 32264 | 250 µg/mL
CCCCCCCCCCCCN1CCc2cc(O)c(O)cc2C1 |  | MIC80 |  | 16 µg/mL
CO[C@H]1C[C@H](O[C@H]2CC[C@@]3(C)C(=CC[C@H]4C5=CC(=O)[C@@H]6[C@@H](C)OC(=O)[C@]56CC[C@@H]43)C2)O[C@H](C)[C@H]1O[C@H]1C[C@H](OC)[C@H](O[C@@H]2C[C@@H](OC)[C@@H](O[C@@H]3O[C@H](CO)[C@@H](O)[C@H](O)[C@H]3O)[C@H](C)O2)[C@@H](C)O1 | broth dilution / turbidity | MIC | IP 90526 | 25 µg/mL
CCC(C)CC(C)CCCCCCCCC(=O)N[C@H]1C[C@@H](O)[C@H](NCCN)NC(=O)[C@@H]2[C@@H](O)CCN2C(=O)[C@H]([C@H](O)CCN)NC(=O)[C@H]([C@H](O)[C@@H](O)c2ccc(O)cc2)NC(=O)[C@@H]2C[C@@H](O)CN2C(=O)[C@H]([C@@H](C)O)NC1=O |  | MIC50 |  | 8–16 µg/mL
C[C@@H]1CC[C@@]2(OC1)O[C@H]1C[C@H]3[C@@H]4CC=C5C[C@@H](O[C@@H]6O[C@H](CO)[C@H](O[C@@H]7O[C@@H](C)[C@H](O)[C@@H](O)[C@H]7O)[C@@H](O)[C@H]6O[C@@H]6O[C@@H](C)[C@H](O)[C@@H](O)[C@H]6O)CC[C@]5(C)[C@H]4CC[C@]3(C)[C@H]1[C@@H]2C |  | MFC |  | ≥20 µg/mL

A second listing of 3 rows from above:

smiles	read by	read-out	strain or isolate	value
C[C@@H]1C=C2C3CCC4[C@@]5(C)CC[C@@H](O)C(C)(C)C5CC[C@@]4(C)[C@]3(C)CC[C@@]2(C(=O)O)CC1	broth dilution	MLC	ATCC 208821	>200 µg/mL
CO[C@H]1C[C@H](O[C@H]2CC[C@@]3(C)C(=CC[C@H]4C5=CC(=O)[C@@H]6[C@@H](C)OC(=O)[C@]56CC[C@@H]43)C2)O[C@H](C)[C@H]1O[C@H]1C[C@H](OC)[C@H](O[C@@H]2C[C@@H](OC)[C@@H](O[C@@H]3O[C@H](CO)[C@@H](O)[C@H](O)[C@H]3O)[C@H](C)O2)[C@@H](C)O1	broth dilution / turbidity	MIC	IP 90526	25 µg/mL
c1ccc2[nH]c(-c3cscn3)nc2c1		MIC50		0.12–128 µg/mL

A number after MIC or MFC names an inhibition level or a share of isolates. a–b is a range or a potency band. An empty or dashed field is not shown. Rows are shuffled and stem from different studies.